From the supplement of paper PMC9931576 come the findings set out here.

Human monoclonal antibodies against the spike receptor-binding domain (heavy:light variable regions). IC50 against pseudoviruses bearing the spike of naturally observed variants; lower = stronger; >10 µg/ml means not reached at the top dose. No active / inactive call. The stated detection limit is 0.0005 µg/ml; values near or below 0.001 µg/ml lie at the floor of the assay.

To fix the notation:
B1: BD56-1789 (protein)
chain 1: QVQLVQSGAEVRRPGSSVKVSCKASGGTFSSYTISWVRQAPGQGLEWMGRIIPVLGIPKYAQKFEGRVTITADKSTSTAYMEVNSLRSEDTAVYYCARDKDYSGSGSVYAMDVWGQGTTVAVSS
chain 2: QSVLTQPPSVSGAPGQRVTISCTGSNSNIGAGYDVHWYQKFPGTAPKLLIYVNNNRPSGVPDRFSGSQSGTSASLAITGLQPEDEADYYCQSYDSSLTDVVFGGGTKLTFL
B2: BD56-1776 (protein)
chain 1: EVQLVESGGGLVQPGGSLRLSCSASGFTFSSYAMHWVRQAPGKGLEYVSTISTNGGSTYYADSVKGRFTISRDNSKNMLYLQMSSLRAEDTAVYYCVKGNYLEYYYESTNDYWGQGTLVTVSS
chain 2: DIQMTQSPSSLSASVGDRVTITCRASQSISGYLNWYQQKPGKAPKLLISGASSLHSGVPSRFSGSGSGTDFTLTISSLQPEDFATYYCQQTYITPQTFGQGTKVEIK
B3: BD56-1774 (protein)
chain 1: QVQLVESGGGVVQPGRSLRLSCAASGFSFSNYAIHWVRQAPGKALEWVSGISRDGSLTFYADSVKGRFTISRDNSKNTLYLQMNSLRAEDTAVFYCAREFDFGDYRPGWFDPWGQGTLVTVSS
chain 2: DIQMTQSPSSLSASVGDRVTITCRASQNINNYLNWYQQKPGKAPKLLIYAASSLQSGVPSRFSGSGSGTDFTLTISSLQPEDFATYYCQQSYGTPPWTFGQGTKVEIQ
B4: BD56-1783 (protein)
chain 1: QVQLQESGPGLVKPSGTLSLTCTVSGGSISSYYWSWIRQPPGKGLEWIGCIYYSGNTNYNPSLKSRVTISVDTSKNQFSLKLSSVTAADTAVYYCAGDYFDSTGYYYGFDYWGQGSLVTVSS
chain 2: EIVLTQSPGTLSLSPGERATLSCRASQTVSSSSLAWYQQKPGQAPRLLIYGTSSWATGIPDRFSGSGSGTDFTLTISRLEPEDFAVYYCQHYGDSRTFGQGTRVEIK
B5: BD56-1785 (protein)
chain 1: EVQLVESGGGLVQPGRSLRLSCAASGFPFDDYAMHWVRQAPGKGLEWVSGISWNGGVIGYADSVKGRCIISRDNAKNSLYLQMNSLRAEDTALYYCVKDMSGGDYQHYFDHWGQGTLVSVSS
chain 2: SYVLTQPPSVSVAPGKTARITCGGNYIGSKSVHWYQQRPGQAPVLVVHDDSDRPSGIPERLSGSKSGNTATLTISRVEAGDEADYYCQMWDSSSDVYVFGTGTKVTVL
B6: BD56-1778 (protein)
chain 1: QVQLVESGGGVVQPGRSLRLSCAASGFSFSTYAMHWVRQAPGKGLEWVAVILDDGSSKIYADSVRGRFTISRDNSRNTLYLQMNSLSSEDTAVYYCARDEALVGATTLFDYWGQGTLVTVSS
chain 2: DIQMTQSPSSLSASVGDRVTITCRASQSVVRFLNWYQQRPGKAPKLLIYGASTLQTGVPSRFGGSGSGTDFTLTISSLQPEDFATYYCQQSYSTPPWTFGQGTKVEIK

The first assay addresses SARS-CoV-2 Omicron BA.1 spike pseudovirus. The assay can be described thus: pseudovirus neutralization IC50; higher = weaker neutralization. Here is the method: (§1)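 Single-round VSV luciferase pseudovirus mixed with antibody dilutions for 1 h and put on Huh-7 cells for about a day; IC50 from the dose curve.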
Take B1: the “pseudovirus neutralization IC50” value is over 10 mg/L.
On the same count and under the same terms, the same measure for B2: 0.00349 mg/L.
For the molecule B3, the “pseudovirus neutralization IC50” value was over 10 mg/L.
In the case of B4, the “pseudovirus neutralization IC50” value came out at 0.702 mg/L.
On to B5, for which the “pseudovirus neutralization IC50” value was 0.0298 mg/L.
For the molecule B6, the “pseudovirus neutralization IC50” value was over 10 mg/L.

Another assay addresses SARS-CoV-2 Omicron BA.2 spike pseudovirus. The description is as above. Here is the method: as §1
Turning to B1, the “pseudovirus neutralization IC50” value was over 10 mg/L.
Regarding B2, the “pseudovirus neutralization IC50” value was 0.00129 mg/L.
Regarding B3, the “pseudovirus neutralization IC50” value was over 10 mg/L.
The same measure, in the same setting: in the case of B4 it was 0.717 mg/L; in that of B5, 0.041 mg/L; in that of B6, over 10 mg/L.

The next assay concerns the target SARS-CoV-2 Omicron BA.2.75 spike pseudovirus. Described as above. The protocol:
as §1
As for B1, the “pseudovirus neutralization IC50” value was over 10 mg/L.
For B2, the “pseudovirus neutralization IC50” value stood at 0.111 mg/L.
With B3, the “pseudovirus neutralization IC50” value was over 10 mg/L.
For B4, the “pseudovirus neutralization IC50” value is 1.07 mg/L.
With B5, the “pseudovirus neutralization IC50” value was determined as 0.00968 mg/L.
B6: the “pseudovirus neutralization IC50” value is over 10 mg/L.

Another assay addresses SARS-CoV-2 Omicron BA.5 spike pseudovirus. The assay is described as above. Here is the method: as §1
Take B1: the “pseudovirus neutralization IC50” value was over 10 mg/L.
Take B2: the “pseudovirus neutralization IC50” value was determined as 2.03 mg/L.
Still for that read-out and setting: the same measure for B3: over 10 mg/L; for B4: 2.51 mg/L; for B5: over 10 mg/L.
For B6, the “pseudovirus neutralization IC50” value was over 10 mg/L.

The next assay deals with SARS-CoV-2 Omicron BQ.1.1 spike pseudovirus. The description is as above. Here is the method: as §1
Take B1: the “pseudovirus neutralization IC50” value is over 10 mg/L.
Turning to B2, the “pseudovirus neutralization IC50” value is over 10 mg/L.
With B3, the “pseudovirus neutralization IC50” value was over 10 mg/L.
Same read-out and setting: the same measure for B4: 1.24 mg/L.
Turning to B5, the “pseudovirus neutralization IC50” value is over 10 mg/L.
Turning to B6, the “pseudovirus neutralization IC50” value was over 10 mg/L.

The target in another assay is SARS-CoV-2 Omicron XBB spike pseudovirus. The assay is described as above. The protocol: as §1
Turning to B1, the “pseudovirus neutralization IC50” value was over 10 mg/L.
In the case of B2, the “pseudovirus neutralization IC50” value was over 10 mg/L.
The same measure, in the same setting: in the case of B3 it was over 10 mg/L; in that of B4, 1.18 mg/L.
On to B5, for which the “pseudovirus neutralization IC50” value was over 10 mg/L.
Consider B6, for which the “pseudovirus neutralization IC50” value was over 10 mg/L.

The target in the next assay is SARS-CoV-2 early D614G spike pseudovirus. The assay is described as above. Here is the method:
as §1
For B1, the “pseudovirus neutralization IC50” value was over 10 mg/L.
The same measure, in the same setting: in the case of B2 it was 0.05 mg/L; in that of B3, over 10 mg/L.
As for B4, the “pseudovirus neutralization IC50” value worked out at 2.65 mg/L.
Take B5: the “pseudovirus neutralization IC50” value was determined as 0.0195 mg/L.
Consider B6, for which the “pseudovirus neutralization IC50” value was over 10 mg/L.
